Measured values from several laboratories, pooled; numbers as filed in NIAID ChemDB.

Shared fields: tests in culture; species: Varicella zoster virus; endpoint: EC50

Two numbers with a dash give a range or band. Conditions beyond the fields shown may differ between rows. ECn: concentration that inhibits the pathogen or its effect by n%. Blank or dashed fields: not listed here.

structure | cell line | method | strain or isolate | result
CCCCCCCCCCc1cc2cn([C@H]3C[C@H](O)[C@@H](CO)O3)c(=O)nc2n1C | HEL | plaque count | OKA | 6 µM
CO[C@H](CO)[C@@H](O)CCn1cnc2c(=O)[nH]c(N)nc21 | HEL | cytopathic effect | OKA | >400 µg/mL
Cc1cc2nc3c4ccccc4n(CCN(C)C)c3nc2cc1C | HL | - | ULF | 0.5–3 µM
CCOc1ccc(-c2cc3cn([C@H]4C[C@H](O)[C@@H](CO)O4)c(=O)nc3o2)cc1 | HEL | plaque count | YS | 0.012 µM
C#Cc1cn(S(=O)(=O)c2ccc(C)cc2)c(=O)[nH]c1=O | HEL | plaque count | 07/1 | >16 µM
COC(=O)[C@H](C)NP(=O)(OC[C@H]1O[C@@H](n2cc(/C=C/Br)c(=O)[nH]c2=O)C[C@@H]1O)Oc1ccccc1 | HEL | cytopathic effect | YS (TK-) | >50 µM
CCCCCCOc1ccc(-c2cc3cn([C@H]4C[C@H](O)[C@@H](CO)O4)c(=O)nc3o2)cc1 | HEL | plaque count | YS | 0.0014 µM
Cc1c(Br)cc(Br)c2ncc(CSCc3ccc(Cl)cc3)n12 | HEL | plaque count | YS (TK+) | 3.2 µg/mL
Nc1ccn(CC[C@H](O)CCO)c(=O)n1 | HEL | cytopathic effect | YS/R (TK-) | >400 µg/mL
O=c1[nH]c(=O)n([C@H]2C[C@H](O)[C@@H](CO)O2)cc1/C=C/Br | HEL | cytopathic effect | 07/1 (TK-) | >400 µg/mL
CCCCCCCOc1ccc(-c2cc3cn([C@H]4C[C@H](O)[C@@H](CO)O4)c(=O)nc3o2)cc1 | HEL | plaque count | OKA | 0.006 µM
CC1(C)[C@H](CCO)C[C@@H]1n1nnc2c(N)ncnc21 | - | plaque count | OKA (TK+) | 3.2 µg/mL
Nc1ncnc2nn(C[C@@H](CF)OCP(=O)(O)O)nc12 | HEL | cytopathic effect | 07/1 (TK-) | >10 µg/mL
C=CCN(c1ccc(NC(=S)Nc2ccc(NC(C)=O)cc2)cc1Cl)C1CCCCC1 | HFF | ELISA | ELLEN | >10 µg/mL
Cn1cc(C(=O)NCc2ccc(Cl)cc2)c(=O)c2cc(CN3CCOCC3)ccc21 | HFF | plaque count | MA varicella isolate | 0.5 µM
C[C@H](Cn1nc2nc(N)[nH]c(=O)c2n1)OCP(=O)(O)O | HEL | cytopathic effect | YS/R (TK-) | >20 µg/mL
Nc1ncnc2c1ncn2[C@@H]1O[C@H](CO)[C@H]1CO | HEL | plaque count | TK+/YS | 28 µg/mL
Nc1nc(=O)n([C@H]2C[C@H](O)[C@@H](CO)O2)cc1/C=C\Cl | HEL | plaque count | 7/01 (TK-) | >40 µg/mL
O=c1[nH]c(=O)n([C@@H]2CO[C@H](CO)O2)cc1/C=C/Br | HEL 299 | - | - | 0.05 µM
O=C(O)CP(=O)(O)O | HEL | plaque count | OKA-H12 | 7.4 µg/mL
COc1ccc(CSCc2cnc3c(Br)cc(Br)c(C)n23)cc1 | HEL | plaque count | OKA (TK+) | >5 µg/mL
COC(=O)[C@H](C)NP(=O)(OC[C@H]1O[C@@H](n2cc(/C=C/Br)c(=O)[nH]c2=O)C[C@@H]1O)Oc1ccc(Cl)cc1 | HEL | cytopathic effect | 07 (TK-) | >50 µM
CCCCCCCCc1cc2cnc(=O)[nH]c2o1 | HEL | plaque count | 07/1 | >80 µM
Nc1nc2c(nnn2CCOCP(=O)(O)O)c(=O)[nH]1 | HEL | cytopathic effect | YS/R (TK-) | 0.4 µg/mL
CC1(C)[C@H](CCO)C[C@@H]1n1cnc2c(N)ncnc21 | - | plaque count | YS (TK+) | 28 µg/mL
CCCCOC[C@H]1O[C@@H]2CC(C)(C)C[C@@H]2[C@H]1OCCCC | HEL | plaque count | 07/1 | >80 µg/mL
Cc1c(Br)cc(Br)c2ncc(CSCc3cccs3)n12 | HEL | plaque count | YS/R (TK-) | >2 µg/mL
Nc1nc2c(ncn2[C@@H]2C[C@H](CO)[C@H]2CO)c(=O)[nH]1 | HEL | plaque count | TK+/YS | 0.09 µg/mL
O=c1[nH]c(=O)n([C@H]2C[C@H](O)[C@@H](CO)O2)cc1/C=C/Br | HEL 299 | - | - | 0.06 µM
Nc1nc2nn(CCOCP(=O)(O)O)nc2c(=O)[nH]1 | HEL | cytopathic effect | YS (TK+) | 40 µg/mL
Nc1nc2c(ncn2C[C@H]2CCC[C@H]2CO)c(=O)[nH]1 | HEL | plaque count | 07/1 (TK-) | >50 µg/mL
CC1(C)[C@H](CCO)C[C@@H]1n1nnc2c(=O)[nH]cnc21 | - | plaque count | YS/R (TK-) | >50 µg/mL
O=c1[nH]c(=O)n([C@H]2C[C@H](O)[C@@H](CO)O2)cc1/C=C\Cl | HEL | plaque count | YS | 0.1 µg/mL
Nc1nc2c(ncn2CCC(CO)CO)c(=O)[nH]1 | HEL | cytopathic effect | Oka penciclovir-resistant/A | 12.5 µM
CCCCCCCCc1cc2cn([C@H]3C[C@H](O)[C@@H](CO)O3)c(=O)nc2[nH]1 | HEL | plaque count | YS | 0.38 µM
OC[C@H]1O[C@@H](c2cc(C(O)CI)c(F)cc2F)C[C@@H]1O | HEL | plaque count | 07/1 (TK-) | 50 µg/mL
CCCCCCCCC#Cc1c[nH]c(=O)[nH]c1=O | HEL | plaque count | OKA | >16 µM
Nc1nc2c(ncn2COCCO)c(=O)[nH]1 | HEL | cytopathic effect | OKA | 0.3 µg/mL
CCCCCCCCCCCCc1cc2cn([C@H]3C[C@H](O)[C@@H](CO)O3)c(=O)nc2o1 | HEL | plaque count | YS/R (TK-) | >20 µM
CC(=O)Nc1ccc(NC(=S)Nc2ccc(N(C)CCO)c(Cl)c2)cc1 | HFF | ELISA | ELLEN | >10 µg/mL
OC[C@H]1O[C@@H](c2ccccc2)[C@H](O)[C@@H]1O | HEL | plaque count | 07/1 | >50 µg/mL
CCCCCCCCCCc1cc2cn([C@H]3C[C@H](O)[C@@H](CO)O3)c(=O)nc2n1CCC | HEL | plaque count | OKA | >5 µM
Cc1c(Br)cc(Br)c2ncc(CSCc3ccccc3F)n12 | HEL | plaque count | OKA (TK+) | >5 µg/mL
COc1cc(OC)c(NC(=S)Nc2ccc(NC(C)=O)cc2)cc1Cl | HFF | ELISA | ELLEN | >10 µg/mL
O=c1[nH]c(=O)n([C@H]2C[C@H](O)[C@@H](CO)O2)cc1-c1cc(-c2ccccc2)no1 | HEL | plaque count | YS | 73 µg/mL
O=c1nc2oc(CCCC3OCCCO3)cc2cn1[C@H]1C[C@H](O)[C@@H](CO)O1 | HEL | plaque count | 07/1 (TK-) | >200 µM
CCCCCCCCCCCCc1cc2cn([C@H]3C[C@H](O)[C@@H](CO)O3)c(=O)nc2[nH]1 | HEL | plaque count | 07/1 (TK-) | 76 µM
O=c1nc2oc(CCCC3OCCO3)cc2cn1[C@H]1C[C@H](O)[C@@H](CO)O1 | HEL | plaque count | YS/R (TK-) | >200 µM
Nc1ncnc2c1ncn2CC[C@H](O)CCO | HEL | cytopathic effect | 07/1 (TK-) | >400 µg/mL
O=C(O)P(=O)(O)O | HEL | cytopathic effect | Clinical isolate VZV-20 | 95.3 µM
Nc1nc(N)c2ncn([C@H]3CCC[C@H]3CO)c2n1 | HEL | plaque count | 07/1 (TK-) | >50 µg/mL
CC[Si]1(C(C)C)O[C@H]2[C@@H](O)[C@H](c3ccccc3)O[C@@H]2CO[Si](C(C)C)(C(C)C)O1 | HEL | plaque count | OKA | >2 µg/mL
CCCCCC#Cc1c[nH]c(=O)[nH]c1=O | HEL | plaque count | 07/1 | >80 µM
CO[C@H](CO)[C@@H](O)CCn1cc(C)c(=O)[nH]c1=O | HEL | cytopathic effect | YS/R (TK-) | >400 µg/mL
CCCOc1ccc(-c2cc3cn([C@H]4C[C@H](O)[C@@H](CO)O4)c(=O)nc3o2)cc1 | HEL | plaque count | 07/1 (TK-) | 9.5 µM
Cc1c(Br)cc(Br)c2ncc(CSCc3ccco3)n12 | HEL | plaque count | YS/R (TK-) | 11 µg/mL
CCCCCCCOCCc1cc2cn([C@H]3C[C@H](O)[C@@H](CO)O3)c(=O)nc2o1 | HEL | plaque count | YS | 22 µM
OC[C@H]1O[C@@H](c2cc(C(O)CBr)c(F)cc2F)C[C@@H]1O | HEL | plaque count | 07/1 (TK-) | >20 µg/mL
NC1=NCCN1CC(=O)O | MRC-5 | plaque count | - | 4000 µM
Nc1ncnc2c1ncn2[C@@H]1C[C@H](CO)[C@@H](O)[C@@H]1O | HEL | plaque count | YS-W3 G19 H3 | 0.8 µg/mL
Nc1ncnc2nn(C[C@@H](CO)OCP(=O)(O)O)nc12 | HEL | cytopathic effect | YS (TK+) | >100 µg/mL
O=c1[nH]c(=O)n([C@@H]2O[C@H](CO)[C@@H](O)[C@@H]2O)cc1/C=C/Br | HEL | cytopathic effect | Oka penciclovir-resistant/B | 0.0005 µM
CCCOCCOCCCc1cc2cn([C@H]3C[C@H](O)[C@@H](CO)O3)c(=O)nc2o1 | HEL | plaque count | OKA | >200 µM
CCC/C=C/c1cccc(-c2cc3cn([C@H]4C[C@H](O)[C@@H](CO)O4)c(=O)nc3o2)c1 | HEL | - | - | >12 µM
Cc1ccccc1CSCc1cnc2c(Br)cc(Br)c(C)n12 | HEL | plaque count | OKA (TK+) | >5 µg/mL
Nc1nc2c(ncn2[C@H]2CCC[C@H]2CO)c(=O)[nH]1 | HEL | plaque count | YS/R (TK-) | >50 µg/mL
O=c1[nH]c(=O)c2ncn([C@@H]3O[C@H](CO)[C@H]3CO)c2[nH]1 | HEL | plaque count | (TK-)/YS/R | 176 µg/mL
Nc1nc(N)c2ncn(CCOCP(=O)(O)O)c2n1 | HEL | cytopathic effect | OKA (WILD TYPE) | 2.3 µM
CCCCCCC#Cc1c[nH]c(=O)[nH]c1=O | HEL | plaque count | OKA | >80 µM